Source: patent US20170152290A1, “Beta hairpin peptides having antiviral properties against Dengue virus” (published 2017)

Tests used:
[1] = target: T1, activated human alfa-2-macroglobulin (α2M_MeNH2) (human), P01023; assay: competition ELISA, α2M* coated, DIIIE1Jbiot as labelled ligand
T1 chain: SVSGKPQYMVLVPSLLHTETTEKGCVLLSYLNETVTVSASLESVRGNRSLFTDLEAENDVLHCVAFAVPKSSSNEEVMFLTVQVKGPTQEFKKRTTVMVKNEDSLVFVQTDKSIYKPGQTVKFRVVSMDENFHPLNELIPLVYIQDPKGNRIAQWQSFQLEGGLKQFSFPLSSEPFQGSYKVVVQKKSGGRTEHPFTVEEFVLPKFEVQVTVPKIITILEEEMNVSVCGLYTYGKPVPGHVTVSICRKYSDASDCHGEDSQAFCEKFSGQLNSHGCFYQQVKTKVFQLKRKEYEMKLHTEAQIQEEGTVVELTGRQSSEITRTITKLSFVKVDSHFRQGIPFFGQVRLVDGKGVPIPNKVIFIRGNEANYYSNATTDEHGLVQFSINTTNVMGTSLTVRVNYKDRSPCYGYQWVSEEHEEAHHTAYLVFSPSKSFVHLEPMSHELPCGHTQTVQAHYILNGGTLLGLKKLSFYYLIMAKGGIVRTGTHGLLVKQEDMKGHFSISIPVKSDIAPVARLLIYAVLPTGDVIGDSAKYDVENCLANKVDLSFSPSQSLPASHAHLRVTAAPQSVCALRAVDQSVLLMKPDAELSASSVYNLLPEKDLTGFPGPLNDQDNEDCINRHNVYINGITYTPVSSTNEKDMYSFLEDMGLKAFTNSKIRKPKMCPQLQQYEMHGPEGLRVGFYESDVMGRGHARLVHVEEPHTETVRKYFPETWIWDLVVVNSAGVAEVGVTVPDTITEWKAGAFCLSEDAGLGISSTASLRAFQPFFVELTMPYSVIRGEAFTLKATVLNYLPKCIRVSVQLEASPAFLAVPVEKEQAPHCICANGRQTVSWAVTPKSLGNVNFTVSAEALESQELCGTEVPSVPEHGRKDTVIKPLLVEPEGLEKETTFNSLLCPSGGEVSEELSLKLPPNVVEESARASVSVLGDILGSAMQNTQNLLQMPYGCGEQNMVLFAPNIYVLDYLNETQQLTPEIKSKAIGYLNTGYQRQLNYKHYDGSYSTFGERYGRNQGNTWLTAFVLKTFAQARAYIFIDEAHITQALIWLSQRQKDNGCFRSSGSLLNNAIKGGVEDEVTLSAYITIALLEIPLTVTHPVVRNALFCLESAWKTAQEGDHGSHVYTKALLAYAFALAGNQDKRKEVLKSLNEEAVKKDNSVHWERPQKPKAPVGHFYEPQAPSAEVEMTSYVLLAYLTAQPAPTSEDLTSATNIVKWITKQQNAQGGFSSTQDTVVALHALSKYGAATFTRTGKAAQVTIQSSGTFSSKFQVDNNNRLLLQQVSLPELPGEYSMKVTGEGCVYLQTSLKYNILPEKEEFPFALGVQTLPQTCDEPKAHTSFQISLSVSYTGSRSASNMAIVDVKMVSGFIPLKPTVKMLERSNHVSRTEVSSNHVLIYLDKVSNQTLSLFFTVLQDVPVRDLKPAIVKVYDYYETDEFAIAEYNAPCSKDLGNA

[2] = target: LRP1 receptor (Low Density Lipoprotein Receptor-Related Protein) on Vero cells; assay: cell-based or functional assay
[3] = target: sLRP1-CIV (cluster IV of LRP1 fused to the constant region of a human IgG1) (human); assay: SPR (Biacore X), sLRP1-CIV immobilised on CM5 chip, peptide at 20 µM; RU observed at 160 s

## CSNIVIGIGDKALKINWCKK (modifications not checked) [peptide HDIII3CL]
[1]
  maximum inhibition percentage: 18%
[2]
  Antiviral activity IC50 vs DENV1 (plaque reduction, Vero cells): 15 µM
  Antiviral activity IC50 vs DENV2 (plaque reduction, Vero cells): 20 µM
  Antiviral activity IC50 vs DENV3 (plaque reduction, Vero cells): 20 µM
  Antiviral activity IC50 vs DENV4 (plaque reduction, Vero cells): 50 µM
  Antiviral activity in Vero cells, IC50 (plaque reduction, DENV2): 20 µM
[3]
  RU (at 160 s): 562 RU
